Laboratory results reported in PMC9661721, “Structure of the drug target ClpC1 unfoldase in action provides insights on antibiotic mechanism of action” (The Journal of Biological Chemistry, 2022).

Experiments:
SEC = molecular target: the molecule itself; assay: SEC
[1] = molecular target: the molecule itself; assay: cryo-EM structure; apo ClpC1 E288A/F444A/E626A; 3.6 Å; hexamer to protomers

B1: Mycobacterium tuberculosis ClpC1 F444A (enzyme)
chain: not shown
notes: also called MtbClpC1 F444A; F444A mutant
stoichiometry N (SEC): 6

B2: Mycobacterium tuberculosis ClpC1, wild type (enzyme)
chain: not shown
notes: ClpC1 AAA+ unfoldase of Mycobacterium tuberculosis; NTD, D1, middle domain and D2; the UniProt entry is printed in the AlphaFold link; also called WT ClpC1; ClpC1WT
binding result (SEC): binds

B3: Mycobacterium tuberculosis ClpC1 E288A/F444A/E626A (enzyme)
chain: not shown
notes: also called MtbClpC1_(E288A/F444A/E626A); MtbClpC1 F444A E288A E626A
stoichiometry N [1]: 6
